Results of unrelated studies side by side (data: NIAID ChemDB).

All rows: whole-cell or culture tests; agent: Pneumocystis carinii; endpoint: EC50

ECn is the concentration giving n% inhibition of infection, replication or growth.

| SMILES | cells | method | conditions | result |
|---|---|---|---|---|
| CCCCCN=C(N)c1ccc(N2CCN(c3ccc(C(N)=NCCCCC)cc3)CC2)cc1 | - | ATP | - | 0.001 µg/mL |
| C(=C\COc1ccc(C2=NCCN2)cc1)/COc1ccc(C2=NCCN2)cc1 | - | - | - | <0.2 µM |
| COc1cc(N(C(C)=O)C(C)CCCN2C(=O)CN(C(C)=O)C2(C)C)c2ncccc2c1 | A549 | - | 72 h | >50 µg/mL |
| CC(C)CCN=C(N)c1ccc(N2CCN(c3ccc(C(N)=NCCC(C)C)cc3)CC2)cc1.Cl.Cl | A549 | ATP | - | 0.009 µg/mL |
| CC(C(O)(Cn1cncn1)c1ccc(F)cc1F)S(C)(=O)=O | WI-38 | - | 10 d | >10 µg/mL |
| CC(C)CN=C(N)c1ccc(N2CCCN(c3ccc(C(N)=NCC(C)C)cc3)CC2)cc1 | - | - | - | >1 µM |
| CCCCCCCCCCN=C(N)c1ccc(N2CCN(c3ccc(C(N)=NCCCCCCCCCC)cc3)CC2)cc1 | - | ATP | - | 0.723 µg/mL |
| c1ccc(CNCCCNCCCCCCCNCCCNCc2ccccc2)cc1 | - | - | - | 3–30 µM |
| Clc1ccc(COC(Cn2ccnc2)c2ccc(Cl)cc2Cl)c(Cl)c1 | WI-38 | - | 10 d | <10 µg/mL |
| NC(N)=NC(=O)c1nc(Cl)c(N)nc1N | - | - | - | >100 µM |
| c1cc(N2CCN(c3ccc(C4=NCCN4)cc3)CC2)ccc1C1=NCCN1 | - | ATP | - | 1.71 µg/mL |
| CCC(C)n1ncn(-c2ccc(N3CCN(c4ccc(OC[C@H]5CO[C@](Cn6cncn6)(c6ccc(Cl)cc6Cl)O5)cc4)CC3)cc2)c1=O | WI-38 | - | 10 d | >10 µg/mL |
| NC(=NC1CCC1)c1ccc(N2CCN(c3ccc(C(N)=NC4CCC4)cc3)CC2)cc1 | - | ATP | - | 0.058 µg/mL |
| N=C(N)c1ccc(N2CCCN(c3ccc(C(=N)N)cc3)CC2)cc1 | - | - | - | <1 µM |
| N=C(N)c1ccc(OC/C=C/COc2ccc(C(=N)N)cc2)cc1 | - | - | - | <0.2 µM |
| NC(=NCCO)c1ccc(N2CCCN(c3ccc(C(N)=NCCO)cc3)CC2)cc1 | - | - | - | >1 µM |
| NC(=NC1CC1)c1ccc(N2CCN(c3ccc(C(N)=NC4CC4)cc3)CC2)cc1 | - | ATP | - | 2.5 µg/mL |
| N=C(N)c1ccc(OC[C@@H](O)[C@@H](O)COc2ccc(C(=N)N)cc2)cc1 | - | - | - | >0.2 µM |
| CC(=O)N(O)CCCCCNC(=O)CCC(=O)N(O)CCCCCNC(=O)CCC(=O)N(O)CCCCCN | Human fibroblasts | - | 7 d | <7.5 µM |
| CC(=O)c1ccc(N2CCN(c3ccc(C(C)=O)cc3)CC2)cc1 | - | ATP | - | >100 µg/mL |
| CC(=O)N(O)CCCCCNC(=O)CCC(=O)N(O)CCCCCNC(=O)CCC(=O)N(O)CCCCCN.[Mg] | Human fibroblasts | - | 7 d | <30 µM |
| c1ccc(N2CCN(c3ccccc3)C2c2ccc(N3CCN(c4ccc(C5N(c6ccccc6)CCN5c5ccccc5)cc4)CC3)cc2)cc1 | - | ATP | - | >100 µg/mL |
| CC(=O)N(O)CCCCCNC(=O)CCC(=O)N(O)CCCCCNC(=O)CCC(=O)N(O)CCCCCN.[Ca] | Human fibroblasts | - | 7 d | <30 µM |
| N=C(N)c1ccc(NC(=O)CCCCC(=O)Nc2ccc(C(=N)N)cc2)cc1 | A549 | ATP | - | 0.001 µg/mL |

Repeating the first 3 entries:

SMILES | cells | method | conditions | result
CCCCCN=C(N)c1ccc(N2CCN(c3ccc(C(N)=NCCCCC)cc3)CC2)cc1 | - | ATP | - | 0.001 µg/mL
C(=C\COc1ccc(C2=NCCN2)cc1)/COc1ccc(C2=NCCN2)cc1 | - | - | - | <0.2 µM
COc1cc(N(C(C)=O)C(C)CCCN2C(=O)CN(C(C)=O)C2(C)C)c2ncccc2c1 | A549 | - | 72 h | >50 µg/mL

Two numbers with a dash give a range or band. Blank or dashed fields: not listed here. Neighbouring rows are from separate reports.